A mixed list of measured activities; the numbers were collected in NIAID ChemDB.

Common to all: whole-cell or culture tests; species: Herpes simplex virus 2; measure: EC50

ECn is the concentration giving n% inhibition of infection, replication or growth. Blank or dashed fields: not listed here. a–b is a range or a potency band. Lines come from different laboratories, so protocols vary.

SMILES | strain or isolate | method | result
COC(=O)[C@H](C)NP(=O)(OCC1C/C1=C/n1cnc2c(N)ncnc21)Oc1ccccc1 | - | - | >1 µM
Cc1cn(CC=C(CO)CO)c(=O)[nH]c1=O | - | - | >100 µg/mL
O=c1c2ncn(COCCO)c2[nH]c2ncc(C(c3ccccc3)(c3ccccc3)c3ccccc3)n12 | G | cytopathic effect | >16 µg/mL
CN1Cc2cc3ccc4c(c3c(-c3ccc5c(c3)OCO5)c2C1=O)OCO4 | - | - | 15 µM
NC1=NC2C(C=CN2CC(CO)CCO)C(=O)N1 | - | plaque count | 0.01–0.1 µM
Nc1ncc2c(ncn2/C=C2/CC2CO)n1 | - | ELISA | >100 µM
CNc1ncnc2c1ncn2[C@@H]1S[C@H](CO)C[C@@H]1N=[N+]=[N-] | - | - | >100 µg/mL
Cc1[nH]c2nc3c(ncn3COCCO[Si](C)(C)C(C)(C)C)c(=O)n2c1C(c1ccccc1)(c1ccccc1)c1ccccc1 | G | cytopathic effect | >10 µg/mL
Cc1cn([C@H]2C[C@H](N=[N+]=[N-])[C@@H]([C@@H](C)O)O2)c(=O)[nH]c1=O | - | - | 300 µg/mL
O=c1[nH]c(=O)n([C@H]2O[C@@H](CO)[C@H](O)[C@@H]2O)cc1I | - | - | >100 µM
Nc1nc2c(ncn2COCCO)c(=O)[nH]1 | - | plaque count | 0.6–1.3 µg/mL
Nc1nc2c(ncn2[C@@H]2C[C@H](CO)[C@H]2CO)c(=O)[nH]1 | - | plaque count | 0.01–0.1 µM
O=C(NCc1ccc(Cl)cc1)c1c[nH]c2c(F)cccc2c1=O | MS | plaque count | 26 µM
C=C1[C@H](CO)[C@H]1Cn1cnc2c(Cl)ncnc21 | - | - | >100 µM
Nc1ncc2ncn(/C=C3/CC3CO)c2n1 | - | ELISA | >100 µM
Nc1nc2c(ncn2[C@@H]2C=C[C@H](CO)CC2)c(=O)[nH]1 | - | - | 0.1–1 µM
[N-]=[N+]=N[C@H]1C[C@@H](CO)S[C@H]1n1ccc(N)nc1=O | - | - | >100 µg/mL
Nc1ccn([C@@H]2OCC(CO)=C2F)c(=O)n1 | - | - | >100 µg/mL
Nc1nc2c(ncn2CCC(CO)CO)c(=O)[nH]1 | - | plaque count | 1–10 µM
Cc1cn([C@@H]2OC3COP(=O)(O)OC3[C@H]2O)c(=O)nc1N | LYONS | - | >400 µg/mL
CC(C)c1ccc(-c2cc(-c3cn([C@H]4CC[C@H](O)[C@@H](CO)O4)c(=O)[nH]c3=O)on2)cc1 | - | - | 0.09 µg/mL
COC(=O)[C@H](C)NP(=O)(OC[C@H]1C/C1=C/n1cnc2c(OC)nc(N)nc21)Oc1ccccc1 | - | - | 0.6 µM
CC(=O)OCCOCn1cnc2c(=O)n3cc(-c4ccc5ccccc5c4)[nH]c3nc21 | G | cytopathic effect | >16 µg/mL
[N-]=[N+]=N[C@@H]1C[C@@H](CO)S[C@@H]1n1cnc2c(Cl)ncnc21 | - | - | >100 µg/mL
O=C(c1ccncc1)n1c(-c2cccc([N+](=O)[O-])c2)nc2ccccc21 | G | - | >100 µg/mL
Nc1nc2c(ncn2CC#CCO)c(=O)[nH]1 | - | cytopathic effect | >100 µg/mL
CC(=O)NC1C(O)OC(CO)C(O)C1OC1OC(C(=O)[O-])C(OC2OC(CO)C(O)C(OC3OC(C(=O)[O-])C(O)C(O)C3O)C2NC(C)=O)C(O)C1O.[Na+].[Na+] | LYONS | - | >400 µg/mL
COc1ccc(-c2[nH]c3nc4c(ncn4COCCO)c(=O)n3c2-c2ccc(C(c3ccccc3)c3ccccc3)cc2)cc1 | 196 | cytopathic effect | >16 µg/mL
Nc1nc2c(ncn2[C@@H]2C[C@H](CO)[C@H]2O)c(=O)[nH]1 | - | plaque count | 0.4 µM
CCC(=O)C(CCCCCCOc1ccc(OCCCCCCC(C(=O)CC)C(=O)CC)cc1)C(=O)CC | Curtis | plaque count | >3 µg/mL
Nc1nc(=S)n([C@@H]2O[C@H](CO)[C@@H](O)[C@@H]2O)cc1F | G | - | 0.92 µg/mL
C=C1[C@H](CO)[C@H]1Cn1cnc2c(N)nc(N)nc21 | - | - | >100 µM
O=C(c1ccc([N+](=O)[O-])cc1)n1c(-c2ccc([N+](=O)[O-])cc2)nc2ccccc21 | G | - | 50 µg/mL
Cc1cccc(C)c1N(CC(=O)Nc1ccc(-c2ncon2)cc1)C(=O)C1CCS(=O)(=O)CC1 | OOM | plaque count | 0.022 µg/mL
Nc1nc2c(ncn2[C@@H]2C=C[C@H](CO)[C@@H](O)C2)c(=O)[nH]1 | G | - | 0.05 µg/mL
O=C(c1ccc([N+](=O)[O-])cc1)n1c(-c2cccc([N+](=O)[O-])c2)nc2ccccc21 | G | - | >20 µg/mL
CCCCCCc1cn([C@@H]2O[C@H](COP(=O)(O)O)[C@@H](O)[C@H]2O)c(=O)nc1N | 196 | - | >400 µg/mL
Nc1ccn([C@H]2C[C@H](CO)[C@@H](CO)O2)c(=O)n1 | - | - | 1.4 µg/mL
CC1=C[C@H](n2cnc3c(N)ncnc32)CC1(CO)CO | - | - | >100 µg/mL
COc1nc(N)nc2c1ncn2/C=C1/C[C@H]1CO | - | - | >50 µM
Nc1nccc2c1ncn2[C@@H]1C[C@H](CO)[C@@H](O)[C@H]1O | Strain G | cytopathic effect | >400 µg/mL
CC1=C[C@H](n2cnc3c(N)ncnc32)C[C@]1(C)CO | - | - | >100 µg/mL
NS(=O)(=O)c1ncnc2c1ncn2[C@@H]1O[C@H](CO)[C@@H](O)[C@@H]1O | - | cytopathic effect | >320 µM
CCCCc1cn([C@@H]2OC3COP(=O)(O)OC3[C@H]2O)c(=O)nc1N | 196 | - | >400 µg/mL
[N-]=[N+]=N[C@@H]1C[C@@H](CO)S[C@H]1n1cnc2c(Cl)ncnc21 | - | - | >100 µg/mL
O=C1O[C@H]2[C@@H]3OC(=O)c4cc(c(O)c(O)c4O)-c4c(cc(Oc5c(C(=O)O[C@H]6[C@H](OC(=O)c7cc(O)c(O)c(O)c7)OC7COC(=O)c8cc(O)c(O)c(O)c8-c8c(cc(O)c(O)c8O)C(=O)O[C@H]6C7OC(=O)c6cc(O)c(O)c(O)c6)cc(O)c(O)c5O)c(O)c4O)C(=O)OC[C@H]2O[C@@H](OC(=O)c2cc(O)c(O)c(O)c2)[C@@H]3OC(=O)c2cc(O)c(O)c3c2[C@@H]2C1=CC(=O)[C@@](O)(O3)C2(O)O | - | - | 11.87 µM
C/C(=C\Cn1cc(I)c(=O)[nH]c1=O)CO | - | - | >100 µg/mL
Nc1nc2c(ncn2CC=C(CO)CO)c(=O)[nH]1 | - | cytopathic effect | >100 µg/mL
NSc1ncnc2c1ncn2[C@H]1C[C@H](O)[C@@H](CO)O1 | - | cytopathic effect | >320 µM
C=C1[C@H](CO)[C@H]1Cn1cnc2c(Cl)nc(N)nc21 | - | - | >100 µM
Nc1ccn([C@@H]2CC[C@H](CO)O2)c(=S)n1 | - | - | >100 µM
O=C(c1ccncc1)n1c(-c2ccc(Cl)cc2)nc2ccccc21 | G | - | >20 µg/mL
C=C1[C@H](CO)OC[C@@H]1n1ccc(=O)[nH]c1=O | - | - | >100 µg/mL
Nc1nc2c(ncn2C[C@H]2CC2(CO)CO)c(=O)[nH]1 | - | cytopathic effect | >100 µg/mL
CCCCCCCCc1cn([C@@H]2O[C@H](COP(=O)(O)O)[C@@H](O)[C@H]2O)c(=O)nc1N | G | - | >400 µg/mL
O=c1[nH]c(=O)n(CC=C(CO)CO)cc1I | - | - | >100 µg/mL
Cc1cn([C@H]2C[C@@H](N=[N+]=[N-])[C@@H](CO)O2)c(=O)[nH]c1=O | 333 | plaque count | >100 µM
NS(=O)(=O)c1ncnc2c1ncn2[C@H]1C[C@H](O)[C@@H](CO)O1 | - | cytopathic effect | >320 µM
CNc1ncnc2c1ncn2[C@H]1S[C@@H](CO)C[C@@H]1N=[N+]=[N-] | - | - | >100 µg/mL
CS/C=C/C(=O)NCCCCNC(=O)Cc1ccccc1 | - | plaque count | >20 µg/mL
Nc1nc2c(ncn2[C@@H]2S[C@H](CO)[C@@H](O)[C@@H]2F)c(=O)[nH]1 | MS | cytopathic effect | 0.037 µg/mL
C/C(=C\Cn1cc(C)c(=O)[nH]c1=O)CO | - | - | >100 µg/mL
Nc1nc(=O)n([C@@H]2S[C@H](CO)[C@@H](O)[C@@H]2F)cc1I | MS | cytopathic effect | 0.32 µg/mL
O=C(NCc1ccc(Cl)cc1)c1c[nH]c2c(F)cccc2c1=O | 3 isolates | plaque count | 23 µM
Nc1nc2c(ncn2C[C@]2(CO)C[C@H]2CO)c(=O)[nH]1 | 186 | plaque count | 0.24 µg/mL
O=c1c2ncn(COC(CO)CO)c2nc2[nH]c(-c3ccccc3)cn12 | LYONS | cytopathic effect | 0.005 µg/mL
Nc1nc(F)nc2c1ncn2[C@H]1S[C@H](CO)[C@@H](O)[C@@H]1F | MS | cytopathic effect | >27 µg/mL
COc1ccccc1-c1nc2ccccc2n1C(=O)c1ccncc1 | G | - | >20 µg/mL
CC1=C[C@H](n2ccc(N)nc2=O)CC1(CO)CO | - | - | >100 µg/mL

The first 6 rows once more:

SMILES	strain or isolate	method	result
COC(=O)[C@H](C)NP(=O)(OCC1C/C1=C/n1cnc2c(N)ncnc21)Oc1ccccc1	-	-	>1 µM
Cc1cn(CC=C(CO)CO)c(=O)[nH]c1=O	-	-	>100 µg/mL
O=c1c2ncn(COCCO)c2[nH]c2ncc(C(c3ccccc3)(c3ccccc3)c3ccccc3)n12	G	cytopathic effect	>16 µg/mL
CN1Cc2cc3ccc4c(c3c(-c3ccc5c(c3)OCO5)c2C1=O)OCO4	-	-	15 µM
NC1=NC2C(C=CN2CC(CO)CCO)C(=O)N1	-	plaque count	0.01–0.1 µM
Nc1ncc2c(ncn2/C=C2/CC2CO)n1	-	ELISA	>100 µM